Source: PubChem BioAssay AID1224833 (University of Georgia, 2016)
In all, the deposit lists about 12,000 reagents; below is a random part of them. About 5,600 of them (46%) count as active. 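Active calls cover z-scores past 1 in both directions, so they include lowered as well as raised rotavirus replication.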

Assay: 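Host factors restraining rotavirus as candidate antiviral genes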 (primary screen)
Cells: monkey MA104 kidney cells
Knock-down reagent: siRNA pool against human genes, 50 nM
Time to read-out: 48 h knock-down before infection; read 24 h after infection
Treatment: infection with rotavirus strain RV3 two days after transfection; infectious dose for this stage not given
Read-out: 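Rotavirus antigen per well by fluorescent immunoassay, normalised to non-targeting control wells on each plate and given as a standard z-score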
Reading the numbers: z-score vs non-targeting control: higher = more rotavirus replication than with non-targeting control
Hit rule: In these data the active calls have z-score vs non-targeting control at about -1 or lower, or at about 1 or higher
Meaning of the calls: active = z-score beyond 1 either way; inactive = z-score within 1 of zero

CCNA2 (cyclin A2)
- z-score vs non-targeting control: -1.03
- activity call: active

GPR22 (G protein-coupled receptor 22)
- z-score vs non-targeting control: -2.03
- activity call: active

ARID1B (AT-rich interaction domain 1B)
- z-score vs non-targeting control: 0.67
- activity call: inactive

PLEKHB2 (pleckstrin homology domain containing B2)
- z-score vs non-targeting control: -1.4
- activity call: active

C11orf71 (chromosome 11 open reading frame 71)
- z-score vs non-targeting control: 3.29
- activity call: active

SHC2 (SHC adaptor protein 2)
- z-score vs non-targeting control: -1.37
- activity call: active

ADRA2C (adrenoceptor alpha 2C)
- z-score vs non-targeting control: -1.53
- activity call: active

PDZD11 (PDZ domain containing 11)
- z-score vs non-targeting control: -0.613
- activity call: inactive

PPP1R14A (protein phosphatase 1 regulatory inhibitor subunit 14A)
- z-score vs non-targeting control: -1.58
- activity call: active

SLC25A16
- z-score vs non-targeting control: -1.17
- activity call: active

H4C8 (H4 clustered histone 8)
- z-score vs non-targeting control: 2.44
- activity call: active

CFAP206 (cilia and flagella associated protein 206)
- z-score vs non-targeting control: 0.046
- activity call: inactive

KNL1 (kinetochore scaffold 1)
- z-score vs non-targeting control: 1.43
- activity call: active

KIDINS220 (kinase D interacting substrate 220)
- z-score vs non-targeting control: -1.85
- activity call: active

RDH11 (retinol dehydrogenase 11)
- z-score vs non-targeting control: -1.59
- activity call: active

RTL10 (retrotransposon Gag like 10)
- z-score vs non-targeting control: -1.35
- activity call: active

ARMH3 (armadillo like helical domain containing 3)
- z-score vs non-targeting control: -0.819
- activity call: inactive

PLIN1 (perilipin 1)
- z-score vs non-targeting control: -1.84
- activity call: active

GDF3 (growth differentiation factor 3)
- z-score vs non-targeting control: -0.878
- activity call: inactive

VSTM2A (V-set and transmembrane domain containing 2A)
- z-score vs non-targeting control: 0.644
- activity call: inactive

FANCD2 (FA complementation group D2)
- z-score vs non-targeting control: 2.42
- activity call: active

PNLIPRP3 (pancreatic lipase related protein 3)
- z-score vs non-targeting control: -1.14
- activity call: active

TGFBRAP1
- z-score vs non-targeting control: -0.748
- activity call: inactive

SIRPB2 (signal regulatory protein beta 2)
- z-score vs non-targeting control: -1.35
- activity call: active

PTCHD1 (patched domain containing 1)
- z-score vs non-targeting control: -1.34
- activity call: active

HHIPL1 (HHIP like 1)
- z-score vs non-targeting control: 0.195
- activity call: inactive

KLF7 (KLF transcription factor 7)
- z-score vs non-targeting control: 1.05
- activity call: active

AGAP1 (ArfGAP with GTPase domain, ankyrin repeat and PH domain 1)
- z-score vs non-targeting control: 0.391
- activity call: inactive

CRYBB1 (crystallin beta B1)
- z-score vs non-targeting control: -0.761
- activity call: inactive

PHLPP1 (PH domain and leucine rich repeat protein phosphatase 1)
- z-score vs non-targeting control: -1.87
- activity call: active

TDRKH (tudor and KH domain containing)
- z-score vs non-targeting control: -0.331
- activity call: inactive

TBC1D8 (TBC1 domain family member 8)
- z-score vs non-targeting control: 0.367
- activity call: inactive

TTLL12 (tubulin tyrosine ligase like 12)
- z-score vs non-targeting control: -0.596
- activity call: inactive

STMN2 (stathmin 2)
- z-score vs non-targeting control: -2.16
- activity call: active

OR1E2 (olfactory receptor family 1 subfamily E member 2)
- z-score vs non-targeting control: -0.658
- activity call: inactive

CADPS (calcium dependent secretion activator)
- z-score vs non-targeting control: -0.574
- activity call: inactive

BCAS2 (BCAS2 pre-mRNA processing factor)
- z-score vs non-targeting control: -0.521
- activity call: inactive

PLCE1 (phospholipase C epsilon 1)
- z-score vs non-targeting control: -1.35
- activity call: active

ELF2 (E74 like ETS transcription factor 2)
- z-score vs non-targeting control: -0.757
- activity call: inactive

UQCC1 (ubiquinol-cytochrome c reductase complex assembly factor 1)
- z-score vs non-targeting control: -1.46
- activity call: active

MRPS11 (mitochondrial ribosomal protein S11)
- z-score vs non-targeting control: -1.1
- activity call: active

PHLDA3 (pleckstrin homology like domain family A member 3)
- z-score vs non-targeting control: -0.6
- activity call: inactive

ST7L (suppression of tumorigenicity 7 like)
- z-score vs non-targeting control: -1.14
- activity call: active

AEN (apoptosis enhancing nuclease)
- z-score vs non-targeting control: 0.852
- activity call: inactive

TMEM120A (transmembrane protein 120A)
- z-score vs non-targeting control: 0.153
- activity call: inactive

DVL3 (dishevelled segment polarity protein 3)
- z-score vs non-targeting control: -3.11
- activity call: active

SF3A3 (splicing factor 3a subunit 3)
- z-score vs non-targeting control: 0.393
- activity call: inactive

UTP11 (UTP11 small subunit processome component)
- z-score vs non-targeting control: 0.322
- activity call: inactive

SLC35H1
- z-score vs non-targeting control: 0.0818
- activity call: inactive

TTC38 (tetratricopeptide repeat domain 38)
- z-score vs non-targeting control: -1.1
- activity call: active

CLSTN3 (calsyntenin 3)
- z-score vs non-targeting control: 0.0059
- activity call: inactive

DCLRE1B (DNA cross-link repair 1B)
- z-score vs non-targeting control: -1.01
- activity call: active

RAB38 (RAB38, member RAS oncogene family)
- z-score vs non-targeting control: 1.93
- activity call: active

CRK (CRK proto-oncogene, adaptor protein)
- z-score vs non-targeting control: 0.744
- activity call: inactive

IL26 (interleukin 26)
- z-score vs non-targeting control: -2.89
- activity call: active

SPESP1 (sperm equatorial segment protein 1)
- z-score vs non-targeting control: -0.144
- activity call: inactive

DDX47 (DEAD-box helicase 47)
- z-score vs non-targeting control: 0.99
- activity call: inactive

PSMD5 (proteasome 26S subunit, non-ATPase 5)
- z-score vs non-targeting control: 0.0958
- activity call: inactive

NAPB (NSF attachment protein beta)
- z-score vs non-targeting control: -2.24
- activity call: active

QSOX1 (quiescin sulfhydryl oxidase 1)
- z-score vs non-targeting control: 0.461
- activity call: inactive
